Experimental findings from US20060115815A1 (priority 2002, published 2006) are described below.

Experiment [1] relates to mutant HIV-1 with M46I/I47V/I50V mutations in the protease gene (I50V #1). Nature of the experiment: Resistance evaluation, I50V #1 fold change. Conditions: I50V (#1) mutant.
Experiment [2] deals with mutant HIV-1 with I84V/L90M mutations in the protease gene. Nature of the experiment: Resistance evaluation, I84V/L90M fold change. The format is cell-based.

Consider `CCCCOC(=O)[C@H](C)NP(=O)(COc1ccc(S(=O)(=O)N(CC(C)C)C[C@@H](O)[C@H](Cc2ccccc2)NC(=O)O[C@H]2CO[C@H]3OCC[C@H]32)cc1)N[C@@H](C)C(=O)OCCCC`, for which, in experiment [1], the “I50V (#1) fold change” value is reported as “+ (>3 to ≦10)”. In experiment [2], the I84V/L90M fold change result was “+ (>3 to ≦10)”.
With `Cc1c(O)cccc1C(=O)N[C@@H](Cc1ccc(OCP(=O)(OCc2ccccc2)OCc2ccccc2)cc1)[C@H](O)CN(CC(C)C)S(=O)(=O)c1ccc(N)cc1`, the “I50V (#1) fold change” value in experiment [1] is recorded as “+ (>3 to ≦10)”.
